Biological target: SARS-CoV-2 3CLpro (wild-type) (Severe acute respiratory syndrome coronavirus 2, UniProt P0DTD1)

PF-00835231 was tested, and the “signal of low concentrations randomly interpolated in screening” value was “noticeable positive signal”.

— publication PMC10187092 (Emerging Microbes & Infections, 2023)
